Reference: US20250304937A1

Molecular target: denosumab (XGEVA) (human)
Experiment: cell-based or functional assay

What does the source list for “pCART124 (IdeS control with N terminal methionine and histidine tag) (enzyme)”?
1st IgG2 (XGEVA) heavy chain IgG to scIgG, Conc. of enzyme (ng/ml), gel: 14 ng/mL; 1st IgG heavy chain IgG to scIgG, Conc. of enzyme (ng/ml), gel: 14 ng/mL; 2nd IgG2 (XGEVA) heavy chain scIgG to F(ab')2, Conc. of enzyme (ng/ml), gel: 1100 ng/mL; EC50 (ng/ml) in cleavage of IgG2 (XGEVA), potency ELISA: 199 ng/mL
